Measured values from several laboratories, pooled; numbers as filed in NIAID ChemDB.

Shared fields: tests on isolated targets; species: Hepatitis C virus; protein: HCV NS3 protease; read-out: IC50

ICn: concentration for n% inhibition.

COc1ccc2c(O[C@@H]3C[C@@H](C(=O)NC4(C(=O)O)CC4)N(C(=O)[C@@H](NC(=O)[C@@H](NC(C)=O)C4CCCCC4)C(C)C)C3)ccnc2c1 ; result: 1.4 µM
CC[C@H](NC(=O)[C@@H](NC(=O)[C@@H](NC(=O)[C@H](CC(C)C)NC(=O)[C@@H](CCC(=O)O)NC(=O)[C@H](CC(=O)O)NC(C)=O)[C@@H](C)CC)C1CCCCC1)C(=O)O ; result: 1 µM
CCC[C@H](NC(=O)[C@@H]1CCCN1C(=O)[C@@H](NC(=O)[C@@H](NC(=O)[C@H](CC(=O)O)NC(=O)[C@@H](N)CC(=O)O)[C@@H](C)CC)C(C)C)C(N)=O ; result: >1000 µM
C=C(C)N[C@@H](CCC(=O)O)C(=O)N[C@@H](CC(=O)O)C(=O)N[C@H](C(=O)N[C@H](C(=O)N[C@@H](CC)C(=O)N[C@H](C=O)CCC)C(C)C)C(C)C ; result: 12.4 µM
C=C[C@H]1CC1(NC(=O)[C@@H]1C[C@@H](Oc2cc(-c3ccccc3)nc3cc(OC)ccc23)CN1C(=O)[C@@H](NC(=O)OC(C)(C)C)C(C)C)C(=O)O ; result: 0.03 µM
C=CC[C@H](NC(=O)[C@@H]1C[C@@H](Cc2ccc(-c3ccccc3)cc2)c2c(Cl)nc(NCc3cccc(C(F)(F)F)c3)c(=O)n21)B1OC2CC3CC(C3(C)C)[C@@]2(C)O1 ; result: 0.06 µM
C=C[C@@H]1CC1(NC(=O)[C@@H]1C[C@@H](Oc2ccnc3cc(OC)ccc23)CC1C(=O)[C@H](CCCCC)NC(=O)OC(C)(C)C)C(=O)O ; result: 0.4 µM
CC[C@H](NC(=O)[C@@H](NC(=O)[C@@H](NC(=O)[C@H](CC(C)C)NC(=O)[C@@H](CCC(=O)O)NC(=O)[C@H](CC(=O)O)NC(C)=O)[C@@H](C)CC)C1CCCCC1)C(O)/C=C/c1ccc(OC)cc1 ; result: >10 µM
CC(C)C[C@H](NC(=O)[C@H](O)c1ccccc1)C(=O)N[C@@H](CC(F)F)C(=O)C(=O)O ; result: 3 µM
c1ccc(CNc2nc(-c3ccccc3)[n+](-c3ccccc3)s2)cc1 ; result: 25 µM
CC[C@H](NC(=O)[C@@H](NC(=O)[C@@H](NC(=O)[C@H](CC(C)C)NC(=O)[C@@H](CCC(=O)O)NC(=O)[C@H](CC(=O)O)NC(C)=O)[C@@H](C)CC)C1CCCCC1)C(=O)/C=C/c1ccccc1 ; result: <1 µM
CCCC(C=O)NC(=O)[C@H](CC(C)C)NC(=O)[C@@H](NC(=O)[C@H](Cc1ccccc1C)NC(=O)[C@H](CCC(=O)O)NC(=O)[C@H](CC(=O)O)NC(=O)CCC(=O)O)C(C)(C)C ; result: 0.145 µM
CCC[C@@H](CO)NC(=O)[C@@H]1CCCN1C(=O)[C@@H](NC(=O)[C@@H](NC(=O)[C@H](CC(=O)O)NC(=O)[C@@H](N)CC(=O)O)[C@@H](C)CC)C(C)C ; result: 354 µM
C=C[C@@H]1CC1(NC(=O)[C@@H]1C[C@@H](Oc2ccnc3cc(OC)ccc23)CN1C(=O)[C@@H](NC(=O)[C@@H](NC(C)=O)C1CCCCC1)C(C)C)C(=O)O ; result: 0.047 µM
CSCC[C@H](NC(=O)[C@H](CCC(=O)O)NC(C)=O)C(=O)N[C@@H](CCC(=O)O)C(=O)N[C@@H](CCC(=O)O)C(=O)N[C@@H](CS)C(=O)O ; result: 21 µM
CCC[C@H](NC(=O)[C@@H]1CCCN1C(=O)[C@@H](NC(=O)[C@@H](NC(=O)[C@@H](CC(=O)O)NC(=O)[C@H](CC(=O)O)NC(C)=O)[C@@H](C)CC)C(C)C)C(N)=O ; result: 1.1 µM
COc1ccc2c(O[C@@H]3C[C@@H]4C(=O)CC5(C(=O)O)CC5CCCCCCC[C@H](NC(C)=O)C(=O)N4C3)cc(-c3csc(NC(C)=O)n3)nc2c1 ; result: 0.011 µM
C/C=C/C(=O)[C@H](CC)NC(=O)[C@@H](NC(=O)[C@@H](NC(=O)[C@H](CC(C)C)NC(=O)[C@@H](CCC(=O)O)NC(=O)[C@H](CC(=O)O)NC(C)=O)[C@@H](C)CC)C1CCCCC1 ; result: <1 µM
O=C(O)CN1C(=O)/C(=C/c2ccc(-c3ccccc3)cc2)SC1=S ; result: 20 µM
C=CC1CC1(NC(=O)[C@@H]1C[C@@H](Oc2cc(-c3ccccc3)nc3cc(OC)ccc23)CN1C(=O)[C@@H](NC(=O)OC(C)(C)C)C(C)(C)C)C(=O)NS(=O)(=O)c1ccc(NC(C)=O)cc1 ; result: 0.017 µM
COc1ccc2c(O[C@@H]3CC4C(=O)N[C@]5(C(=O)O)C[C@@H]5/C=C\CCCCCC(NC(=O)OC(C)(C)C)C(=O)N4C3)cc(-c3ccccc3)nc2c1 ; result: 2 µM

For reference, 2 entries again:

SMILES,result
C=C[C@H]1CC1(NC(=O)[C@@H]1C[C@@H](Oc2cc(-c3ccccc3)nc3cc(OC)ccc23)CN1C(=O)[C@@H](NC(=O)OC(C)(C)C)C(C)C)C(=O)O,0.03 µM
C/C=C/C(=O)[C@H](CC)NC(=O)[C@@H](NC(=O)[C@@H](NC(=O)[C@H](CC(C)C)NC(=O)[C@@H](CCC(=O)O)NC(=O)[C@H](CC(=O)O)NC(C)=O)[C@@H](C)CC)C1CCCCC1,<1 µM

Conditions beyond the fields shown may differ between rows.